Data as given in PubChem BioAssay AID624099 (ICCB-Longwood, 2012)
Screen: 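Host factors E2 relies on to silence an HPV18 LCR reporter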 (primary screen). System: human C33A cervical carcinoma cells (HPV-negative) stably expressing BPV1 E2 and an HPV18 LCR luciferase reporter. Knock-down reagent: siRNA pool against human genes, 40 nM. Time to read-out: 72 h. Measurement: 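HPV18 LCR reporter light per well, converted to plate-wise z-scores that exclude control wells, and averaged over triplicate plates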. Scale: mean z-score and z-score: higher = stronger reporter signal, weaker E2 silencing. Hit rule: 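Hit if mean z-score reaches 2 and two or more of three replicate z-scores also reach 2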.
Shown is one part, drawn at random, of about 21,000 reagents tested. 497 of all reagents (2.4%) count as active. 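Higher z means weaker E2 silencing; only reporter increases were scored, and knock-downs that hurt cell survival may mask genuine repressor factors.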 The numbers tell different reagents against one gene apart.

no.	gene symbol	reagent no.	mean z-score	z-score, replicate A	z-score, replicate B	z-score, replicate C	Outcome
1	MARCHF10 (membrane associated ring-CH-type finger 10)	1	-0.97	-0.92	-1.16	-0.84	inactive
2	MTO1 (mitochondrial tRNA translation optimization 1)	1	-0.57	-0.61	-0.53	-0.57	inactive
3	TAS2R31 (taste 2 receptor member 31)	1	-0.4	-0.19	-0.42	-0.59	inactive
4	NDUFS8 (NADH:ubiquinone oxidoreductase core subunit S8)	1	-1.32	-0.97	-1.47	-1.53	inactive
5	TAS2R43 (taste 2 receptor member 43)	1	-0.67	-0.4	-0.77	-0.85	inactive
6	SLC35F4	1	0.1	0.24	-0.09	0.14	inactive
7	NDUFA9 (NADH:ubiquinone oxidoreductase subunit A9)	1	-1.15	-1.16	-0.94	-1.37	inactive
8	MED13L (mediator complex subunit 13L)	1	-1.73	-1.63	-1.73	-1.84	inactive
9	MRPS2 (mitochondrial ribosomal protein S2)	1	-0.28	-0.16	-0.28	-0.4	inactive
10	PRCC (proline rich mitotic checkpoint control factor)	1	0.67	0.67	0.85	0.49	inactive
11	STAM (signal transducing adaptor molecule)	1	-0.28	-0.21	-0.4	-0.23	inactive
12	RPL7P6 (ribosomal protein L7 pseudogene 6)	1	-4.08	-3.46	-4.37	-4.41	inactive
13	EXOC3-AS1 (EXOC3 antisense RNA 1)	1	0.89	1.2	0.38	1.08	inactive
14	NIM1K (NIM1 serine/threonine protein kinase)	1	1.42	1.57	1.1	1.6	inactive
15	ZNF844 (zinc finger protein 844)	1	-0.27	-0.19	-0.21	-0.43	inactive
16	TMEM134 (transmembrane protein 134)	1	1.01	1.61	0.5	0.92	inactive
17	ARL4C (ARF like GTPase 4C)	1	-1.86	-1.87	-1.77	-1.94	inactive
18	ACAN (aggrecan)	1	0.35	-0.27	0.69	0.64	inactive
19	IFNA1 (interferon alpha 1)	1	0.39	0.51	0.37	0.28	inactive
20	PSTPIP2 (proline-serine-threonine phosphatase interacting protein 2)	1	-0.2	0.01	-0.34	-0.27	inactive
21	MMS22L (MMS22 like, DNA repair protein)	1	-1.14	-1.18	-1.14	-1.09	inactive
22	ANTKMT (adenine nucleotide translocase lysine methyltransferase)	1	-0.14	0.04	-0.45	0	inactive
23	TBX18 (T-box transcription factor 18)	1	-0.17	0.07	-0.24	-0.34	inactive
24	LOC402279 (glutamate metabotropic receptor 8 pseudogene)	1	-0.14	-0.18	0.02	-0.25	inactive
25	H2AZ2P1 (H2AZ2 pseudogene 1)	1	-1.12	-1.02	-1.24	-1.09	inactive
26	LINC02875 (long independently transcribed non-coding RNA 2875)	1	-0.96	-0.86	-0.98	-1.05	inactive
27	OR10R2 (olfactory receptor family 10 subfamily R member 2)	1	0.15	0.29	-0.31	0.46	inactive
28	LOC283202 (retired record)	1	0.43	0.49	0.43	0.38	inactive
29	OR1A1 (olfactory receptor family 1 subfamily A member 1)	1	1.65	1.62	2.06	1.28	inactive
30	YWHAE	1	0.44	-0.09	0.5	0.91	inactive
31	KBTBD8 (kelch repeat and BTB domain containing 8)	1	-0.25	-0.37	-0.01	-0.36	inactive
32	LYPD2 (LY6/PLAUR domain containing 2)	1	-2.26	-2.21	-2.09	-2.49	inactive
33	RPL18AP4 (ribosomal protein L18a pseudogene 4)	1	0.33	0.43	-0.05	0.6	inactive
34	UBL4B (ubiquitin like 4B)	1	-0.1	-0.11	0.18	-0.38	inactive
35	LINC00316 (long independently transcribed non-coding RNA 316)	1	0.18	0.16	0.04	0.33	inactive
36	SAMD5 (sterile alpha motif domain containing 5)	1	-0.54	-0.57	-0.52	-0.53	inactive
37	GFM1 (G elongation factor mitochondrial 1)	1	0.78	0.56	0.88	0.89	inactive
38	FLOT2 (flotillin 2)	1	1.08	1.13	1.14	0.97	inactive
39	INTS12 (integrator complex subunit 12)	1	1.07	0.65	1.21	1.34	inactive
40	CDKL3 (cyclin dependent kinase like 3)	1	0.05	0.04	-0.18	0.3	inactive
41	XDH (xanthine dehydrogenase)	1	-1.65	-1.31	-1.79	-1.84	inactive
42	ACVR1C (activin A receptor type 1C)	1	-0.67	-0.47	-0.66	-0.88	inactive
43	TMEM39A (transmembrane protein 39A)	1	-0.48	-0.9	-0.8	0.26	inactive
44	ZNF691 (zinc finger protein 691)	1	1.03	0.5	1.25	1.34	inactive
45	WNK1 (WNK lysine deficient protein kinase 1)	1	-0.65	-0.71	-0.61	-0.63	inactive
46	WNK1 (WNK lysine deficient protein kinase 1)	2	-1.11	-1.31	-1.02	-0.99	inactive
47	LDOC1 (LDOC1 regulator of NFKB signaling)	1	-0.08	-0.02	-0.1	-0.13	inactive
48	NYAP2	1	-1.11	-1.31	-0.99	-1.03	inactive
49	TCAIM (T cell activation inhibitor, mitochondrial)	1	1.02	1.34	0.71		inactive
50	DARS2 (aspartyl-tRNA synthetase 2, mitochondrial)	1	-0.83	-1.24	-0.94	-0.32	inactive
51	LOC400792 (retired record)	1	-2.91	-2.57	-2.98	-3.19	inactive
52	CHRNB1 (cholinergic receptor nicotinic beta 1 subunit)	1	0.11	0.09	0	0.24	inactive
53	TXNDC11 (thioredoxin domain containing 11)	1	1	1.2	1.15	0.65	inactive
54	LINC00299 (long independently transcribed non-coding RNA 299)	1	-0.03	-0.2	0.19	-0.08	inactive
55	TTC19 (tetratricopeptide repeat domain 19)	1	0.91	1.1	0.84	0.8	inactive
56	IRF1 (interferon regulatory factor 1)	1	-0.91	-0.95	-0.74	-1.05	inactive
57	CALML6 (calmodulin like 6)	1	1.97	2.08	2.1	1.75	inactive

5 of these entries, set out differently.
{"gene symbol":"DARS2 (aspartyl-tRNA synthetase 2, mitochondrial)","reagent no.":1,"mean z-score":-0.83,"z-score, replicate A":-1.24,"z-score, replicate B":-0.94,"z-score, replicate C":-0.32,"Outcome":"inactive"}
{"gene symbol":"LOC400792 (retired record)","reagent no.":1,"mean z-score":-2.91,"z-score, replicate A":-2.57,"z-score, replicate B":-2.98,"z-score, replicate C":-3.19,"Outcome":"inactive"}
{"gene symbol":"CHRNB1 (cholinergic receptor nicotinic beta 1 subunit)","reagent no.":1,"mean z-score":0.11,"z-score, replicate A":0.09,"z-score, replicate B":0,"z-score, replicate C":0.24,"Outcome":"inactive"}
{"gene symbol":"TXNDC11 (thioredoxin domain containing 11)","reagent no.":1,"mean z-score":1,"z-score, replicate A":1.2,"z-score, replicate B":1.15,"z-score, replicate C":0.65,"Outcome":"inactive"}
{"gene symbol":"LINC00299 (long independently transcribed non-coding RNA 299)","reagent no.":1,"mean z-score":-0.03,"z-score, replicate A":-0.2,"z-score, replicate B":0.19,"z-score, replicate C":-0.08,"Outcome":"inactive"}
